# Results as given in ChEMBL document CHEMBL4000252, “Discovery of N-(2-aminoethyl)-N-benzyloxyphenyl benzamides: New potent Trypanosoma brucei inhibitors” (Bioorg Med Chem, 2017).
# This is a selection: effects in other tests are not listed, and their absence says nothing.
# Tested on: Trypanosoma brucei brucei
# Assay: Antiparasitic activity against Trypanosoma brucei brucei BF427 assessed as growth inhibition after 48 hrs by Alamar blue assay
smiles,measurement,value
O=C(c1ccc(Cl)cc1Cl)N(c1ccc(Cl)cc1)C1CCNCC1,EC50,4.11 µM
